Compound potency records, mixed from different reports. Data source: NIAID ChemDB in PubChem.

All rows: tests in culture; agent: Adenovirus; read by: cytopathic effect; read-out: EC50

ECn: concentration that inhibits the pathogen or its effect by n%. Conditions beyond the fields shown may differ between rows.

CC(O)C(CP(=O)(O)O)OCn1ccc(N)nc1=O ; cell line: HEP-2 ; strain or isolate: TYPE 2 ; result: >320 µg/mL
Nc1ncnc2c1ncn2C[C@H](CO)OCP(=O)(O)O ; strain or isolate: Chicago (type 1) ; result: 4 µg/mL
Nc1ccn(C[C@H]2COP(=O)(O)CO2)c(=O)n1 ; cell line: HEL ; strain or isolate: TYPE 2 ; result: 3.9 µM
Cc1cn(COC(CP(=O)(O)O)C(O)CO)c(=O)[nH]c1=O ; cell line: HEP-2 ; strain or isolate: TYPE 2 ; result: >320 µg/mL
O=C(O)[C@H]1O[C@@H](Oc2cc3oc(-c4ccccc4)cc(=O)c3c(O)c2O)[C@H](O)[C@@H](O)[C@@H]1O ; cell line: BCC-1/KMC ; strain or isolate: TYPE 11 ; result: >50 µg/mL
Nc1ccnc2c1ncn2[C@H]1C=C[C@@H](OCP(=O)(O)O)O1 ; strain or isolate: 13306 (TYPE 8) ; result: 10 µg/mL
CC1(C)CC[C@]2(C(=O)O)CC[C@]3(C)C(=CC[C@@H]4[C@@]5(C)CC[C@H](O)C(C)(C)[C@@H]5CC[C@]43C)[C@@H]2C1 ; cell line: BCC-1/KMC ; strain or isolate: TYPE 8 ; result: >40 µg/mL
O=C(O)P(=O)(O)O ; cell line: HEL ; strain or isolate: TYPE 2 ; result: >1000 µM
Nc1ccn(C[C@@H](CO)OCP(=O)(O)O)c(=O)n1 ; strain or isolate: WT 300 (TYPE 5) ; result: 4 µg/mL
O=c1cc(-c2ccc(O)c(O)c2)oc2cc(O)cc(O)c12 ; cell line: BCC-1/KMC ; strain or isolate: TYPE 11 ; result: >25 µg/mL
Nc1nc2c(ncn2CCC(CO)CO)c(=O)[nH]1 ; cell line: HEL ; strain or isolate: TYPE 2 ; result: ≥500 µM
O=C(O)/C=C/c1ccc(O)cc1 ; cell line: BCC-1/KMC ; strain or isolate: TYPE 11 ; result: 43.8 µg/mL
Nc1ncc2c(ncn2COC(CO)CO)n1 ; cell line: HEL ; strain or isolate: TYPE 2 ; result: 0.57 µM
CCOP(=O)(O)CC(OCn1ccc(=O)[nH]c1=O)C(C)O ; cell line: HEP-2 ; strain or isolate: TYPE 2 ; result: >320 µg/mL
Nc1cc(OC[C@H](CO)OCP(=O)(O)O)nc(N)n1 ; cell line: HEL ; strain or isolate: TYPE 2 ; result: 5.4 µM
O=c1cc(-c2ccccc2)oc2cc(O)c(O)c(O)c12 ; cell line: BCC-1/KMC ; strain or isolate: TYPE 8 ; result: >20 µg/mL
NC(=O)c1ncn([C@@H]2O[C@H](CO)[C@@H](O)[C@H]2O)n1 ; cell line: HEL ; strain or isolate: TYPE 2 ; result: >250 µM
Nc1ccn([C@H]2CC[C@@H](CO)O2)c(=O)n1 ; cell line: BCC-1/KMC ; strain or isolate: TYPE 3 ; result: 7.5 µg/mL

2 of the rows above, restated:

compound,cell line,strain or isolate,result
CC(O)C(CP(=O)(O)O)OCn1ccc(N)nc1=O,HEP-2,TYPE 2,>320 µg/mL
Nc1nc2c(ncn2CCC(CO)CO)c(=O)[nH]1,HEL,TYPE 2,≥500 µM